Pooled drug test results. Numbers come from NIAID ChemDB, via PubChem.

All rows: whole-cell or culture tests; agent: Mycobacterium tuberculosis

MIC bound: limit read from a one-dose screen. Inhibition is in % at the dose shown (toxicity tests: loss of growth or viability). a–b is a range or a potency band. MIC50, MIC90 and the like: level of inhibition, or share of isolates inhibited. Blank or dashed fields: not listed here. Conditions beyond the fields shown may differ between rows. ECn: concentration that inhibits the pathogen or its effect by n%.

compound	strain or isolate	cells	changes	read by	dose	endpoint	value
O=C(CCC(F)(F)F)N1CCC(c2ncc(F)cc2F)CC1	H37Rv	THP-1	-	fluorescence	-	EC50	0.05–0.25 µM
CC1OC(=O)c2cc([N+](=O)[O-])ccc21	H2	-	-	-	-	MIC	1000 µg/mL
CO[C@H]1/C=C/O[C@@]2(C)Oc3c(C)c(O)c4c(O)c(cc(OCC(=O)N(C)N(C)C)c4c3C2=O)NC(=O)/C(C)=C\C=C\[C@H](C)[C@H](O)[C@@H](C)[C@@H](O)[C@@H](C)[C@H](OC(C)=O)[C@@H]1C	-	-	-	-	-	EC50	0.18 µg/mL
COc1ccc(C(=O)O[C@H]2CC[C@@]3(C)[C@@H]4CC[C@H]5[C@@]6(O)C[C@H](O)[C@@]7(O)[C@@H](CN8C[C@@H](C)CC[C@H]8[C@@]7(C)O)[C@]6(O)C[C@@]53O[C@]24O)cc1OC	H37Rv	-	-	BACTEC	-	MIC	≥128 µg/mL
C[C@H](O)[C@H]1C(=O)N2C(C(=O)O)=C(S[C@@H]3CN[C@H](C(=O)Nc4cccc(C(=O)O)c4)C3)[C@H](C)[C@H]12	H37Rv	THP-1	-	luminescence	-	MIC50	29.56 µM
CCCCCC1CC(C)(O)N=C(c2ccccc2)S1	H37Rv	-	-	-	-	EC50	<6.25 µg/mL
COc1ccc(/C=N/C(=O)NCCCN2c3ccccc3Sc3ccccc32)cc1	H37Rv	-	-	agar	25 µg/mL	inhibition	25%
NC1CCN(c2c(F)cc3c(=O)c(C(=O)O)cn(C4CC4)c3c2Cl)C1	H37Rv	-	-	-	-	MIC	0.01 µg/mL
O=C1Cc2ncccc2N1	H37Rv	-	-	BACTEC	-	MIC bound	>12.5 µg/mL
CCOc1ccc2ccccc2c1C(=O)N[C@@H]1C(=O)N2[C@@H]1SC(C)(C)[C@@H]2C(=O)O	H37Rv	-	-	-	-	MIC	>16 µg/mL
Oc1cc(CNC2CCCCC2)ccc1Oc1ccc(Cl)cc1Cl	mc4977	-	INH resistant katG deletion	MTT	-	MIC	6.25 µg/mL
CC1SC(c2ccccc2)=NC(C)(O)C1C	H37Rv	-	-	-	-	EC50	>6.25 µg/mL
C[C@H](O)[C@H]1C(=O)N2C(C(=O)O)=C(S[C@@H]3CN[C@H](C(=O)N(C)C)C3)[C@H](C)[C@H]12	H37Rv	-	-	resazurin	-	MIC	31.7 µM
CCCCN(C(=O)COc1cc2c(O)c3c(O)c(C)c4c(c13)C(=O)[C@@](C)(O/C=C/[C@H](OC)[C@@H](C)[C@@H](OC(C)=O)[C@H](C)[C@H](O)[C@H](C)[C@@H](O)[C@@H](C)/C=C/C=C(/C)C(=O)N2)O4)N(CC)CC	-	-	-	-	-	EC50	9.18 µg/mL
O=C1CSC(c2ccccc2[N+](=O)[O-])N1C(=O)NCCCN1c2ccccc2Sc2ccccc21	H37Rv	-	-	agar	25 µg/mL	inhibition	35%
Cc1c(Cc2ccc(F)cc2)c(=O)n2c([nH]c3ccccc32)c1C#N	H37Rv	-	-	resazurin	-	MIC90	2 µg/mL
CC1C(O)CC23COC(=O)C2=CCCC3C1(C)CCC1COC(=O)C1	H37Rv	-	-	BACTEC	-	MIC	≥12.5 µg/mL
COc1ccccc1/C=N/C(=O)NCCCN1c2ccccc2Sc2ccccc21	H37Rv	-	-	agar	50 µg/mL	inhibition	43%
COc1ccc(C2CCN(C(=O)CCC(F)(F)F)CC2)cn1	H37Rv	THP-1	-	fluorescence	-	EC50	0.05–0.25 µM
Nc1ncnc2c1ncn2C1OC(CO)C(NC(=O)C(N)Cc2ccccc2)C1O	H37Rv	-	-	BACTEC	-	MIC bound	>12.5 µg/mL
CC1(C)S[C@@H]2[C@H](NC(=O)[C@H](N)c3ccc(O)cc3)C(=O)N2[C@H]1C(=O)O	H37Rv	-	-	MTT	-	MIC	128 µM
O=C(CCC(F)(F)F)N1CCC(c2ccncc2F)CC1	H37Rv	THP-1	-	fluorescence	-	EC50	0.05–0.25 µM
CCOc1ccc(/C=N/NC(=O)c2ccccc2NC(=O)C2CC2)cc1OC	H37Rv	-	-	BACTEC	12.5 µg/mL	inhibition	34%
COc1nc2ccc(-c3ccccc3)cc2cc1C(c1ccccc1)C(O)(CCN(C)C)c1cccc2ccccc12	H37Rv	-	-	-	-	MIC90	8.76 µg/mL
CO[C@@H]1/C=C/O[C@@]2(C)Oc3c(C)c(O)c4c(c3C2=O)C(=N[C@@H]2CC[C@@H](O)O[C@H]2C)C=C(NC(=O)/C(C)=C\C(=O)[C@@H]2C[C@@H]2[C@H](O)[C@@H](C)[C@@H](O)[C@@H](C)[C@H](OC(C)=O)[C@@H]1C)C4=O	H37Rv	-	-	BACTEC	12.5 µg/mL	inhibition	66%
CCCCc1cn(Cc2ccc(Oc3ccc(Cl)cc3Cl)c(O)c2)nn1	mc4977	-	INH resistant katG deletion	MTT	-	MIC	0.6 µg/mL
CCCCC1=C(O)c2ccccc2C(=NC(CO)(CO)CO)C1=O	H37Rv	-	-	BACTEC	12.5 µg/mL	inhibition	68%
CCCCN(C(=O)COc1cc2c(O)c3c(O)c(C)c4c(c13)C(=O)[C@@](C)(O/C=C/[C@H](OC)[C@@H](C)[C@@H](OC(C)=O)[C@H](C)[C@H](O)[C@H](C)[C@@H](O)[C@@H](C)/C=C/C=C(/C)C(=O)N2)O4)N(CCC)CCC	-	-	-	-	-	EC50	0.09 µg/mL
CC(=O)NC[C@H]1CN(c2ccc(N3CCSCC3)c(F)c2)C(=O)O1	-	-	-	-	-	MIC90	1 µg/mL
CC1OC(=O)c2cc(N)ccc21	H37Rv	-	-	-	-	MIC	30 µg/mL
O=C(NCCOc1ccc(Cl)cc1)c1cc([N+](=O)[O-])cc(C(F)(F)F)c1	H37Rv	-	-	resazurin	-	MIC90	1 µg/mL
COc1ccc(C(=O)Nn2c(C)ccc2-c2ccccc2)cc1	H37Rv (ATCC 27294)	-	-	resazurin	100 µg/mL	inhibition	100%
CC(C)CCc1ccc(Oc2ccc(Cl)cc2Cl)c(O)c1	Clinical isolate 5071	-	-	-	-	MIC	60 µM
Cc1ccc(/C=C2/SC(c3ccc(C)cc3)N(C(=O)NCCCN3c4ccccc4Sc4ccccc43)C2=O)cc1	H37Rv	-	-	agar	50 µg/mL	inhibition	45%
COc1ccc(Cc2c(C)c(C#N)c3[nH]c4ccccc4n3c2=O)cc1	KZN494	-	-	resazurin	-	MIC90	0.5 µg/mL
Nc1ncnc2c1ncn2[C@@H]1O[C@H](CNS(=O)(=O)CC(=O)c2ccccc2O)[C@@H](O)[C@H]1O	-	-	-	-	-	MIC	25 µM
COCCCn1nnc2ccccc2c1=O	H37Rv	-	-	BACTEC	-	MIC bound	>12.5 µg/mL
O=C(Nn1c(-c2ccccc2)ccc1-c1ccccc1)c1ccncc1	LORA	-	-	turbidity	-	EC90	>67.8 µg/mL
Nc1ncnc2c1ncn2[C@@H]1O[C@H](COS(=O)(=O)NC(=O)c2ccccc2O)[C@@H](O)[C@H]1O	-	-	-	-	-	MIC	0.29 µM
C[C@@H]1CN(C(=S)Nc2ccccc2)[C@@H](C)CN1C=O	H37Rv	-	-	BACTEC	-	MIC bound	>12.5 µg/mL
CCN(CC)N(CC)C(=O)COc1cc2c(O)c3c(O)c(C)c4c(c13)C(=O)[C@@](C)(O/C=C/[C@H](OC)[C@@H](C)[C@@H](OC(C)=O)[C@H](C)[C@H](O)[C@H](C)[C@@H](O)[C@@H](C)/C=C/C=C(/C)C(=O)N2)O4	-	-	-	-	-	EC50	0.15 µg/mL
CCC(=O)N1C(=O)C(C)C23c4cccc([N+](=O)[O-])c4C(=O)N2CCCN13	H37Rv	-	-	BACTEC	-	MIC	≥12.8 µg/mL
CC(=O)OCC1=C(C(=O)O)N2C(=O)[C@@H](NC(=O)Cc3cccs3)[C@H]2SC1	Isolate 1	-	-	-	-	MIC	>16 µg/mL
O=C(NCCOc1ccccc1F)c1cc([N+](=O)[O-])cc(C(F)(F)F)c1	H37Rv	-	-	resazurin	-	MIC90	1 µg/mL
CCc1nc2ccc(N=NN(C)C)cc2[nH]1	H37Rv	-	-	resazurin	6.25 µg/mL	inhibition	-5%
Cc1cc(CC(=O)NCc2ccc(Oc3ccc(Cl)cc3O)c(Cl)c2)on1	mc4914	-	InhA overexpression	MTT	-	MIC	100 µg/mL
NC(=O)c1cnccn1	W11053/NIACIN+	-	-	-	-	MIC	512 µg/mL
COc1nc2ccc(Br)cc2cc1C(c1ccccc1)C(O)(CCCCN(C)C)c1ccc2ccccc2c1	H37Rv	-	-	-	-	MIC90	1.85 µg/mL
COC(=O)[C@@H]1C=CC(O[C@@H]2O[C@H](COC(C)=O)[C@@H](OC(C)=O)[C@H](OC(C)=O)[C@H]2OC(C)=O)n2c(=O)n(-c3ccccc3)c(=O)n21	H37Rv	-	-	resazurin	-	MIC bound	>6.25 µg/mL
CC1OC(=O)c2ccc(N)cc21	H2	-	-	-	-	MIC	300 µg/mL
O=C(NCCCN1c2ccccc2Sc2ccccc21)N1C(=O)/C(=C\c2cccc([N+](=O)[O-])c2)SC1c1cccc([N+](=O)[O-])c1	H37Rv	-	-	agar	50 µg/mL	inhibition	83%
CC1(C)S[C@@H]2[C@H](NC(=O)[C@H](N)c3ccc(O)cc3)C(=O)N2[C@H]1C(=O)O	Isolate 5	-	-	-	-	MIC	>16 µg/mL
Nc1nc(=O)n(CC(O)CO)s1	H37Rv	-	-	BACTEC	-	MIC bound	>12.5 µg/mL
COc1nc2ccc(Br)cc2cc1C(c1ccccc1)C(O)(CCN1CCCCC1)c1ccc2ccccc2c1	H37Rv	-	-	-	-	MIC90	59.56 µg/mL
Cc1ccc(-c2ccccc2)n1NC(=O)c1ccncc1	H37Rv	-	-	turbidity	-	EC50	4.92 µg/mL
CO[C@@]1(NC(=O)Cc2cccs2)C(=O)N2C(C(=O)O)=C(COC(N)=O)CS[C@@H]21	H37Ra	-	-	-	-	MIC	>16 µg/mL
S=c1cc(S)sc2c1c(=S)sc1nc3ccccn3c(=S)c12	H37Rv	-	-	BACTEC	-	MIC bound	>12.5 µg/mL
CCCC1CC(C)(O)N=C(c2ccccc2)S1	H37Rv	-	-	-	-	EC50	>6.25 µg/mL
CC1OC(=O)c2cc(O)ccc21	H37Rv	-	-	-	-	MIC	300 µg/mL
Cc1cccc(/C=N/NC(=S)N(C)C)n1.[Cl][Cu][Cl]	KZN494	-	-	-	-	MIC90	0.78 µM
CC(C)=CCN1CC(C)C(=O)Nc2ccccc21	H37Rv	-	-	BACTEC	12.5 µg/mL	inhibition	14%
CO[C@H]1CCC[C@H]2C1=C(C(=O)O)N1C(=O)[C@H]([C@@H](C)O)[C@@H]21	H37Rv	THP-1	-	luminescence	-	MIC50	1.65 µM
COc1nc2ccc(Br)cc2cc1C(c1ccccc1)C(O)(CCCN(C)C)c1cccc2ccccc12	H37Rv	-	-	-	-	MIC90	56.96 µg/mL
CCCCc1cn(Cc2ccc(Oc3ccc(Cl)cc3O)c(Cl)c2)nn1	H37Rv	-	-	MTT	-	MIC	>100 µg/mL
Cc1ccc(-c2ccccc2)n1NC(=O)C(C)c1ccc(CC(C)C)cc1	H37Rv (ATCC 27294)	-	-	resazurin	100 µg/mL	inhibition	90%
Oc1cc(-c2cc(-c3ccccc3)on2)ccc1Oc1ccc(Cl)cc1Cl	H37Rv	-	-	MTT	-	MIC	>100 µg/mL
COc1nc2cccc(Br)c2cc1C(c1ccccc1)C(O)(CCN(C)C)c1cccc2ccccc12	H37Rv	-	-	-	-	MIC90	44.13 µg/mL
Oc1cc(CC2CCCCC2)ccc1Oc1ccc(Cl)cc1Cl	Clinical isolate 5071	-	-	-	-	MIC	13 µM
CC(C)(C)OC(=O)NC1CCCC1C(O)(C1=CCCC1)C1=CCCC1	H37Rv	-	-	resazurin	-	MIC bound	>6.25 µg/mL
COc1nc2ccc(Br)cc2cc1C(c1ccccc1)C(O)(CCN1CCOCC1)c1ccc2cc(Br)ccc2c1	H37Rv	-	-	-	-	MIC90	67.65 µg/mL
CCC1(O)CCSC(c2ccccc2)=N1	H37Rv	-	-	-	-	EC50	<6.25 µg/mL
CC1=C(C)C(=O)C(CC2=C(C)C(=O)C(C)=C(C)C2=O)=C(C)C1=O	RMP-R	-	-	-	-	MIC	4 µg/mL
Cc1cc(C(=O)NCc2ccc(Oc3ccc(Cl)cc3O)c(Cl)c2)no1	H37Rv	-	-	MTT	-	MIC	>100 µg/mL
COc1ccc(/C=C/c2cc(OC)cc(=O)o2)cc1	H37Rv	-	-	BACTEC	12.5 µg/mL	inhibition	25%
O=C(NCc1ccc(Oc2ccc(Cl)cc2O)c(Cl)c1)c1cc(-c2ccccc2)on1	H37Rv	-	-	MTT	-	MIC	>100 µg/mL
CNC(=O)SC1=NS(=O)(=O)c2ccc(Cl)cc2N1	H37Rv	-	-	BACTEC	-	MIC bound	>12.5 µg/mL
Nc1ncnc2c1ncn2[C@@H]1O[C@H](CNS(=O)(=O)NC(=O)c2ccccc2[O-])[C@@H](O)[C@H]1O	-	-	-	-	-	MIC	0.19 µM
COc1cc2c(c3oc(C)c(C)c(=O)c13)C=CC(C)(C)O2	H37Rv	-	-	BACTEC	12.5 µg/mL	inhibition	0%
O=C(CCC(F)(F)F)N1CCC(c2ccnc(C(F)(F)F)c2)CC1	H37Rv	THP-1	-	fluorescence	-	EC50	<0.05 µM

A second listing of 6 rows from above:

{"compound": "Oc1cc(CC2CCCCC2)ccc1Oc1ccc(Cl)cc1Cl", "strain or isolate": "Clinical isolate 5071", "endpoint": "MIC", "value": "13 µM"}
{"compound": "CCCCCC1CC(C)(O)N=C(c2ccccc2)S1", "strain or isolate": "H37Rv", "endpoint": "EC50", "value": "<6.25 µg/mL"}
{"compound": "COc1ccc(C(=O)O[C@H]2CC[C@@]3(C)[C@@H]4CC[C@H]5[C@@]6(O)C[C@H](O)[C@@]7(O)[C@@H](CN8C[C@@H](C)CC[C@H]8[C@@]7(C)O)[C@]6(O)C[C@@]53O[C@]24O)cc1OC", "strain or isolate": "H37Rv", "read by": "BACTEC", "endpoint": "MIC", "value": "≥128 µg/mL"}
{"compound": "CNC(=O)SC1=NS(=O)(=O)c2ccc(Cl)cc2N1", "strain or isolate": "H37Rv", "read by": "BACTEC", "endpoint": "MIC bound", "value": ">12.5 µg/mL"}
{"compound": "COc1nc2ccc(-c3ccccc3)cc2cc1C(c1ccccc1)C(O)(CCN(C)C)c1cccc2ccccc12", "strain or isolate": "H37Rv", "endpoint": "MIC90", "value": "8.76 µg/mL"}
{"compound": "O=C1Cc2ncccc2N1", "strain or isolate": "H37Rv", "read by": "BACTEC", "endpoint": "MIC bound", "value": ">12.5 µg/mL"}